Experiment: residual antimicrobial in DDG samples from 8 major ethanol producers

Substance: virginiamycin
- virginiamycin detected in DDG (unvalidated experimental analytical procedure): < 1 ppb
- virginiamycin detected in DDG (validated Eurofins analysis): < 1 ppm

From US20080003660A1, “Use of fast-release pristinamycin-type and polyether ionophore type antimicrobial agents in the production of ethanol” (priority 2006, published 2008)
